Laboratory results: article doi:10.1101/2020.08.10.244244

Target: HA-tagged mutant (Leu15) AP2σ2 subunit (human) (human) (UniProt P53680)
Test: co-IP

| reduction of the subunit in the HA-AP2σ2 immunoprecipitate against WT cells [%] | Substance |
| --- | --- |
| > 50 | AP2β2 subunit, endogenous in HEK293 cells (from UniProt P63010 1-937) (natural protein) |
| > 50 | AP2μ2 subunit, endogenous in HEK293 cells (from UniProt Q96CW1 1-435) (natural protein) |
